Results of unrelated studies side by side (data: NIAID ChemDB).

Common to all: tests on isolated targets; agent: HIV-1; target: Integrase; endpoint: IC50

ICn is the concentration giving n% inhibition. An empty or dashed field is not shown. Neighbouring rows are from separate reports.

structure | strain or isolate | method | value
O=c1oc2ccccc2c(O)c1C(c1ccc(C(c2c(O)c3ccccc3oc2=O)c2c(O)c3ccccc3oc2=O)cc1)c1c(O)c2ccccc2oc1=O | - | 3′ processing | 1.1 µM
Nc1ncnc2c1ncn2[C@@H]1CO[C@H](COP(=O)(O)O)[C@H]1OP(=O)(O)OC[C@H]1O[C@@H](n2ccc(=O)[nH]c2=O)[C@H](O)[C@@H]1O | - | 3′ processing | >1000 µM
O/N=C1\C(=C\c2ccc3c(c2)OCCO3)CCCC1C(NO)c1ccc2c(c1)OCCO2 | RF | strand transfer | 200 µM
CC(C)C[C@H]1OC(=O)[C@H](C(C)C)N(C)C(=O)[C@@H](C(C)C)OC(=O)[C@H](C(C)C)N(C)C(=O)[C@@H](C(C)C)OC(=O)[C@H](C(C)C)N(C)C1=O | - | 3′ processing | 37.9 µM
O=CCc1c(-c2ccccc2)c2cc(Cl)ccc2[nH]c1=O | - | AlphaScreen | 11.65 µM
COc1c(O)cc2c(=O)oc3c(O)c(O)cc4c(=O)oc1c2c34 | - | strand transfer / absorbance | >100 µg/mL
O=C1Sc2cc3ccccc3cc2C(=O)N2CSCC12 | - | strand transfer | 100 µM
CN(C)CCCNC(=O)c1cc(NC(=O)c2cc(NC(=O)c3cc(NC(=O)c4ccccc4C(=O)O)cn3C)cn2C)cn1C | - | 3′ processing | >100 µM
CC(=O)O[C@H](C)[C@@H]1C2=C(C(=O)C[C@]1(C)O)C(=O)c1c(ccc(-c3ccc4c(c3O)C(=O)C3=C(C4=O)[C@@H]([C@@H](C)OC(C)=O)[C@@](C)(O)CC3=O)c1O)C2=O | RF | strand transfer | 140 µM
Nc1ccn([C@H]2C[C@H](OP(=O)(O)OC[C@H]3OC[C@@H](n4ccc(=O)[nH]c4=O)[C@@H]3O)[C@@H](COP(=O)(O)O)O2)c(=O)n1 | - | 3′ processing | 164 µM
O=C1c2c(ccc(O)c2O)CN1Cc1ccc2[nH]ccc2c1 | - | strand transfer | 28.7 µM
O=C(O)C(=O)/C=C(\O)c1c[nH]c2cccc(O)c12 | - | AlphaScreen | 35 µM
CN(C)CCCNC(=O)c1cc(NC(=O)c2cc(NC(=O)c3cc(NC4C(=O)c5ccccc5C4=O)cn3C)cn2C)cn1C | - | disintegration | 10.2 µM
Nc1ccc2c(c1)C(=O)N(O)C(=O)C2C(=O)NCc1ccc(F)cc1 | - | strand transfer | 0.382 µM
COC(=O)C(=O)OC1(C(=O)O)C[C@@H](OC(=O)/C=C/c2ccc(O)c(O)c2)C(O)[C@H](OC(=O)/C=C/c2ccc(O)c(O)c2)C1 | LAI | 3′ processing | 0.27 ± 0.08 µg/mL
CC(C)Oc1ccc(Cc2ccccc2)cc1C(=O)CC(=O)C(=O)O | - | 3′ processing | 4 µM
CC(=O)NCCSS(=O)(=O)CCCCS(=O)(=O)SCCNC(C)=O | - | 3′ processing / substrate cleavage | >200 µM
O=C(NCc1ccc(F)cc1)c1nc(N2CCCCS2(=O)=O)c2cccnc2c1O | - | 3′ processing | 4 µM
O=C(NCc1ccc(F)cc1)C1C(=O)N(O)C(=O)c2cc(Br)ccc21 | - | strand transfer | 0.21 µM
Nc1ccn([C@@H]2O[C@H](COP(=O)(O)O[C@H]3[C@H](n4cnc5c(N)ncnc54)CO[C@@H]3COP(=O)(O)O)[C@@H](O)[C@H]2O)c(=O)n1 | - | 3′ processing | >1000 µM
O=C1c2ccc(O)c(O)c2C(=O)N1Cc1cccc(Cl)c1 | - | strand transfer | 0.38 µM
O=C(NNC1=Nc2ccccc2C(c2ccccc2)=NC1)c1cnccn1 | - | substrate cleavage | 2 µM
CCOC(=O)C1=C(O)CCC2(C(=O)OC(C)(C)OC2=O)[C@H]1c1ccco1 | - | strand transfer | 43.8 µM
CC[C@H](C)[C@@H]1NC(=O)[C@H]2CSC(=N2)[C@@H](Cc2ccccc2)NC(=O)[C@@H]2CCCN2C(=O)[C@@H]2CCCN2C(=O)C(C(C)C)NC1=O | - | absorbance | 39 µM
Nc1ncnc2c1ncn2[C@@H]1CO[C@H](COP(=O)(O)O[C@H]2C[C@H](n3cnc4c(N)ncnc43)O[C@@H]2COP(=O)(O)O)[C@H]1O | - | 3′ processing | >1000 µM
O=C(/C=C/c1ccc(O)c(O)c1)O[C@@H]1C[C@](OC(=O)/C=C/c2ccc(O)c(O)c2)(C(=O)O)C[C@@H](O)[C@H]1O | LAI | 3′ processing | 0.35 ± 0.04 µg/mL
C/C=C/[C@@H]1C=C[C@@H]2C[C@H](C)CC[C@H]2[C@]1(C)/C(O)=C1/C(=O)[C@H](CO)N(C)C1=O | - | strand transfer | 7 µM
COC(=O)C(=O)C=C(O)c1ccc(Cc2ccc(F)cc2)o1 | - | strand transfer | 2.4 µg/mL
CN(C)[C@@H]1C(=O)C(C(=O)NCNc2nc3n[nH]nc3c(=O)[nH]2)=C(O)[C@@]2(O)C(=O)C3=C(O)c4c(O)cccc4[C@@](C)(O)[C@H]3C[C@@H]12 | RF | strand transfer | 0.3 µM
CCCCCCCCCCCCCCCCCc1cc(O[C@@H]2O[C@H](CO)[C@H](O)[C@H](O)[C@H]2O)cc(O)c1C(=O)Oc1cc(C)c(C(=O)O)c(O)c1 | - | strand transfer | 50 µM
CCCCCCNC(=O)c1c(O)n(O)c(=O)c2cc([N+](=O)[O-])ccc12 | - | strand transfer | 1.64 µM
Cc1oc2cc3c(-c4c(O)cc(O)c5c(O)c6c(cc45)OC(C)C(C)C6=O)c(=O)cc(O)c3c(O)c2c(O)c1C | - | strand transfer | 4 µM
O=c1cc2ccccc2c(O)n1O | - | ELISA | 4.11 µM
CN(C)CCCNC(=O)c1cc(NC(=O)c2cc(NC(=O)c3cc(NC(=O)c4cnccc4C(=O)O)cn3C)cn2C)cn1C | - | 3′ processing | >100 µM
O=C1NC(=O)c2c1ccc(O)c2O | - | strand transfer | 165 µM
CC(=O)Oc1ccc(/C=C/C(=O)O[C@@H](C(=O)O)[C@@H](OC(=O)/C=C/c2ccc(OC(C)=O)c(OC(C)=O)c2)C(=O)O)cc1OC(C)=O | - | strand transfer | <5 µM
CC(C)[C@H]1OC(=O)[C@H](Cc2ccccc2)N(C)C(=O)[C@@H](C(C)C)OC(=O)[C@H](Cc2ccccc2)N(C)C(=O)[C@@H](C(C)C)OC(=O)[C@H](Cc2ccccc2)N(C)C1=O | - | 3′ processing | 1.9 µM
C[C@@](Cc1ccc(O)c(O)c1)(NN)C(=O)O | - | AlphaScreen | 6.54 µM
NCCCCNCCCN | - | 3′ processing | >100 µM
O=C1c2c(ccc(O)c2O)CN1Cc1cccc(Cl)c1F | - | strand transfer | 1.7 µM
CN1CC(O)C(C)(C)Cn2c(c3c(c(O)c2=O)C(=O)N(Cc2ccc(F)c(Cl)c2)CC3)C1=O | - | strand transfer | 0.021 µM
CN(C)[C@@H]1C(=O)C(C(=O)NCNC(CO)(CO)CO)=C(O)[C@@]2(O)C(=O)C3=C(O)c4c(O)cccc4[C@@](C)(O)[C@H]3C[C@@H]12.Cl | RF | 3′ processing | 1.1 µM
CCCCNc1cc(C(=O)O)cc(S(N)(=O)=O)c1Oc1ccccc1 | - | AlphaScreen | 13.53 µM
CN(C)CCCNC(=O)c1cc(NC(=O)c2cc(NC(=O)c3cc(NC(=O)c4ccc(C(=O)Nc5cc(C(=O)Nc6cc(C(=O)Nc7cc(C(=O)NCCCN(C)C)n(C)c7)n(C)c6)n(C)c5)cc4)cn3C)cn2C)cn1C | - | disintegration | 0.61 µM
CC(=O)Oc1ccc(/C=C/C(=O)O[C@@H](C(=O)O)[C@@H](OC(=O)/C=C/c2ccc(OC(C)=O)c(OC(C)=O)c2)C(=O)O)cc1OC(C)=O | IIIB | strand transfer | >78 µM